According to patent US12569557B2, “Targeting moDC to enhance vaccine efficacy on mucosal surface” (UNIVERSITY OF FLORIDA RESEARCH FOUNDATION, INCORPORATED, priority 2018, dated 2026):

System: lung DC subsets and alveolar macrophages
Assay: Uptake of FITC-conjugated CDG by lung cells after intranasal administration (flow cytometry)
Format: in vivo, mice
Details: i.n.

## 2′-Fluo-AHC-CDG [FITC-conjugated CDG]
FITC+ lung cells after 5 hrs
  CDG-FITC uptake by lung moDCs: no CDG-FITC
In vivo
  Fluorescent CDG uptake by alveolar macrophages (CD11c+MHC IIint): took up most of the fluorescent CDG
